Compound potency records, mixed from different reports. Data source: NIAID ChemDB in PubChem.

All rows: growth or infection tests; organism: Cryptococcus neoformans; endpoint: MIC80

Conditions beyond the fields shown may differ between rows. A number after MIC or MFC names an inhibition level or a share of isolates.

Cc1nn(-c2ccccc2)c2nc3nc4c(c(N)c3c(-c3ccc(Cl)cc3)c12)CCCC4 ; strain: ATCC 32264 ; read by: broth dilution / absorbance ; result: >250 µg/mL
C[C@@H](N1CCN(Cc2cn(Cc3ccc(F)cc3F)c3cc(Cl)ccc23)CC1)[C@](O)(Cn1cncn1)c1ccc(F)cc1F ; strain: ATCC 36556 ; read by: resazurin ; result: >128 µg/mL
OC(CN1CCN(c2ccc(OCc3ccncc3)cc2)CC1)(Cn1cncn1)c1ccc(F)cc1F ; strain: 9406204 ; result: 0.5 µg/mL
COc1ccc(/C=C/C(=O)OC2CCN(CC(O)(Cn3cncn3)c3ccc(F)cc3F)CC2)cc1 ; strain: BLS108 ; read by: broth dilution ; result: 0.502 µM
Cc1ccc(-c2c3c(N)c4c(nc3nc3c2c(C)nn3-c2ccccc2)CCCCC4)cc1 ; strain: ATCC 32264 ; read by: broth dilution / absorbance ; result: 125 µg/mL
CO/N=C(/N)c1ccc(-c2ccc(-c3ccc(/C(N)=N\OC)cc3)o2)cc1 ; strain: H99 ; result: >100 µg/mL
C=CCc1ccc(Cn2cc(CN3CCN([C@H](C)[C@](O)(Cn4cncn4)c4ccc(F)cc4F)CC3)c3ccccc32)cc1 ; strain: ATCC 36556 ; read by: resazurin ; result: >128 µg/mL
CCCCCCCC(=O)OC1CCN(CC(O)(Cn2cncn2)c2ccc(F)cc2F)CC1 ; strain: BLS108 ; read by: broth dilution ; result: 0.139 µM
C[C@@H](N1CCN(Cc2cn(Cc3ccc(Cl)cc3Cl)c3c(Cl)cccc23)CC1)[C@](O)(Cn1cncn1)c1ccc(F)cc1F ; strain: ATCC 36556 ; read by: resazurin ; result: >128 µg/mL
COc1ccc(-c2c3c(N)c4c(nc3nc3c2c(C)nn3-c2ccccc2)CCCCC4)cc1 ; strain: ATCC 32264 ; read by: broth dilution / absorbance ; result: >250 µg/mL
O=C(/C=C/c1ccc(Cl)cc1Cl)OC1CCN(CC(O)(Cn2cncn2)c2ccc(F)cc2F)CC1 ; strain: BLS108 ; read by: broth dilution ; result: 0.466 µM
Cn1nc(Cc2ccc(Cl)cc2)c2ccccc2c1=O ; strain: Clinical isolate (IM 983040) ; read by: broth dilution ; result: 3.9 µg/mL
CCC(C)n1ncn(-c2ccc(N3CCN(c4ccc(OC[C@H]5CO[C@](Cn6cncn6)(c6ccc(Cl)cc6Cl)O5)cc4)CC3)cc2)c1=O ; strain: BLS108 ; read by: broth dilution ; result: 0.354 µM
COc1ccc(-c2c3c(N)c4c(nc3nc3c2c(C)nn3-c2ccccc2)CCC4)cc1 ; strain: ATCC 32264 ; read by: broth dilution / absorbance ; result: 250 µg/mL
N#Cc1ccc(/C=C/C(=O)OC2CCN(CC(O)(Cn3cncn3)c3ccc(F)cc3F)CC2)cc1 ; strain: BLS108 ; read by: broth dilution ; result: 0.127 µM
CN(C)CCNC(=O)c1ccc(-c2ccc(-c3ccc(C(=O)NCCN(C)C)cc3)o2)cc1 ; strain: H99 ; result: >100 µg/mL
O=C(/C=C/c1cccc(Cl)c1)OC1CCN(CC(O)(Cn2cncn2)c2ccc(F)cc2F)CC1 ; strain: BLS108 ; read by: broth dilution ; result: 0.498 µM
CC(C)N=C(N)c1ccc2nc(-c3ccc(CCc4ccc(-c5nc6ccc(C(N)=NC(C)C)cc6[nH]5)cc4)cc3)[nH]c2c1 ; strain: 119.95 ; result: 0.19 µg/mL
Cc1nn(-c2ccccc2)c2nc3nc4c(c(N)c3c(-c3ccc(Cl)cc3)c12)CCC4 ; strain: ATCC 32264 ; read by: broth dilution / absorbance ; result: 250 µg/mL
O=C(COc1cccc2ccccc12)OC1CCN(CC(O)(Cn2cncn2)c2ccc(F)cc2F)CC1 ; strain: BLS108 ; read by: broth dilution ; result: 0.479 µM
N=C(N)c1ccc(OCCCC(O)COc2ccc(C(=N)N)cc2)cc1 ; strain: 133.95 ; result: 0.39 µg/mL

The first 2 rows once more:

structure,strain,read by,result
Cc1nn(-c2ccccc2)c2nc3nc4c(c(N)c3c(-c3ccc(Cl)cc3)c12)CCCC4,ATCC 32264,broth dilution / absorbance,>250 µg/mL
C[C@@H](N1CCN(Cc2cn(Cc3ccc(F)cc3F)c3cc(Cl)ccc23)CC1)[C@](O)(Cn1cncn1)c1ccc(F)cc1F,ATCC 36556,resazurin,>128 µg/mL